Columns and labels:
MK-801-treated mice [1] = test: Social interaction test (MK-801-induced disruptions); design: species or system mice (male CD1); conditions: mouse, in vivo
Description: (§1) Schedules of administration are presented graphically in Figure 1. […] Different vehicles were used throughout the study: (1) 0.9% NaCl, (2) 10% Tween 80 or (3) 10% Tween 80 containing 2% DMSO. Vehicles were administered to all animals (e.g., control mice, MK-801-treated mice) in the same schedule as drugs were administered to the drug-treated appropriate groups of mice.
(§2) Male CD1 mice (Charles River, Germany) weighing 20–25 g at the time of arrival were used in behavioural experiments. Animals were kept in standard laboratory cages T3 (265 × 420 × 180 mm, with an area of 825 cm^2), grouped at 10 mice per cage. Animals were kept under standard laboratory conditions (12:12 light:dark cycle, 21–22 °C) with free access to food and water. Animal welfare has been regularly controlled by a veterinarian and animal welfare committee. After 3–4 weeks of acclimatization and handling, the experiments began. Experimental groups consisted of 8 to 10 animals, depending on the procedure. Drugs were administered intraperitoneally (i.p.) at a volume of 10 mL/kg. […]
This procedure was adapted from de Moura Linck et al. and performed as described in our previous papers. […] Social interactions between the two mice were determined based on the total time spent participating in social behaviours, such as sniffing, genital investigation and chasing.

MK-801-treated mice [2] = test: Novel object recognition test (MK-801-induced disruptions); design: species or system mice (male CD1); conditions: mouse, in vivo
Description: as §1
as §2, with “procedure.” for “procedure. Drugs were administered intraperitoneally (i.p.) at a volume of 10 mL/kg.”
This procedure was adapted from Nilsson et al. and performed as described in a variety of our previous papers. […] Time spent exploring (i.e., sniffing or touching) the familiar (Tfamiliar) and novel (Tnovel) objects was measured by a trained observer, and the recognition index [%] was calculated for each mouse [(Tnovel – Tfamiliar)/(Tfamiliar + Tnovel)] * 100.

SMILES: CCN(Cc1ccncc1)C(=O)C(CO)c1ccccc1 (centres unmarked) [Tropicamide]
- blockade of the effect of combined LY487379 and VU152100 in social interaction (MK-801-treated mice [1]): blocked
- blockade of the effect of combined LY487379 and VU152100 in novel object recognition (MK-801-treated mice [2]): blocked
